A mixed list of measured activities; the numbers were collected in NIAID ChemDB.

ICn is the concentration giving n% inhibition. Percent inhibition refers to the dose given; in toxicity tests it is the harm to the cells. Lines come from different laboratories, so protocols vary. MIC bound comes from a single tested concentration. An empty or dashed field is not shown.

compound	target	test	organism	strain	method	measure	tested at	result
O=S(=O)(Nc1nccs1)c1ccccc1	-	culture	Mycobacterium tuberculosis	H37Rv	-	MIC	-	100 µg/mL
CCCCC(=O)N/N=C/c1ccc(Cl)cc1	-	culture	Mycobacterium tuberculosis	H37Rv	BACTEC	MIC bound	-	>12.5 µg/mL
Fc1ccc(N2CCCCC2)c(NC(=S)c2ccncc2)c1	MST1	host protein	-	-	kinase activity	inhibition	10 µM	9%
CC(=O)c1cnn(-c2ccccc2)c1C	-	culture	Mycobacterium tuberculosis	H37Rv	-	MIC	-	>100 µg/mL
O=C(N/N=C/c1ccco1)C(=O)N/N=C/c1ccco1	-	culture	Mycobacterium tuberculosis	H37Rv	BACTEC	inhibition	12.5 µg/mL	17%
Cc1cc(Cl)cc2c1C(=Nc1ccccc1)CS2	-	culture	Mycobacterium tuberculosis	H37Rv	-	MIC	-	50 µg/mL
CSc1ccc(-c2cncc(N3CCN(c4ccccc4)CC3)n2)cc1	UL97 kinase	target	Cytomegalovirus	-	-	IC50	-	<10 µM
COC(=O)c1ccc(I)c(C)c1	-	culture	Mycobacterium tuberculosis	H37Rv	-	MIC	-	100 µg/mL
CC(=O)c1ccc(-c2cncc(N3CCN(c4ccc(F)cc4F)CC3)n2)cc1	UL97 kinase	target	Cytomegalovirus	-	-	inhibition	1 µM	<50%
Nc1ncc(C(=O)O)c2ccccc12	-	culture	Mycobacterium tuberculosis	H37Rv	-	MIC	-	>100 µg/mL
COc1cccc(-c2cncc(N3CCN(c4ccc(Cl)cc4)CC3)n2)c1	UL97 kinase	target	Cytomegalovirus	-	-	inhibition	1 µM	<50%
CCCCCCCCC[C@@H]1CC(=O)NCC(=O)N[C@@H](C(C)C)C(=O)N[C@H](CC(C)C)C(=O)N[C@@H](C)C(=O)N[C@@H](C(C)C)C(=O)O1	-	culture	Mycobacterium tuberculosis	H37Rv	BACTEC	MIC bound	-	>12.8 µg/mL
Cc1ccc(-c2cncc(N3CCN(c4cccc(C(F)(F)F)c4)CC3)n2)cc1	UL97 kinase	target	Cytomegalovirus	-	-	IC50	-	<100 µM
S=P1(c2ccccc2)Nc2ccccc2N1C1CCCCC1	-	culture	Mycobacterium tuberculosis	H37Rv	resazurin	inhibition	6.25 µg/mL	54%
c1ccc(CNc2ccccc2)cc1	-	culture	Mycobacterium tuberculosis	H37Rv	-	MIC	-	>100 µg/mL
CC1CN=C(N(C(=O)Nc2ccccc2)c2ccc(Cl)c(Cl)c2)S1	-	culture	Mycobacterium tuberculosis	H37Rv	resazurin	inhibition	6.25 µg/mL	18%
CN(C)c1ccc(C=O)cc1	-	culture	Mycobacterium tuberculosis	H37Rv	-	MIC	-	>100 µg/mL
CCCCCCCCCCCCNC1=C(Cl)C(=O)C(=O)c2cccnc21	-	culture	Mycobacterium tuberculosis	H37Rv	BACTEC	inhibition	12.5 µg/mL	99%
Fc1ccccc1N1CCN(c2cncc(-c3ccsc3)n2)CC1	UL97 kinase	target	Cytomegalovirus	-	-	IC50	-	<10 µM
O=C(c1ccccc1Cl)c1c(O)c2ccccc2oc1=O	-	culture	Mycobacterium tuberculosis	H37Rv	BACTEC	inhibition	12.5 µg/mL	-9%
CCNc1cncc(-c2ccc(C(N)=O)cc2)n1	UL97 kinase	target	Cytomegalovirus	-	-	inhibition	1 µM	<50%

Repeating the final 2 entries:

| compound | target | test | organism | strain | method | measure | tested at | result |
|---|---|---|---|---|---|---|---|---|
| O=C(c1ccccc1Cl)c1c(O)c2ccccc2oc1=O | - | culture | Mycobacterium tuberculosis | H37Rv | BACTEC | inhibition | 12.5 µg/mL | -9% |
| CCNc1cncc(-c2ccc(C(N)=O)cc2)n1 | UL97 kinase | target | Cytomegalovirus | - | - | inhibition | 1 µM | <50% |